From patent US7390837B2, “Germicidal compositions containing phenylmalonaldehyde-type compounds, or mixtures of phenylmalonaldehyde-type compounds and phthalaldehydes, and methods of using such compositions for disinfection or sterilization” (Ethicon, Inc., priority 2004, dated 2008)

Test: pigskin staining test
Design: species or system pig; key to Staining: +: tends to stain certain surfaces; −: do not stain
Conditions: for Staining Results: about 10 μL on pigskin, about 24 hours, room temperature; for Staining: summary Table 14

SMILES	Staining Results (0.20% solution)	Staining Results (0.20% solution, listed as EPA)	Staining	Staining Results (0.14% solution)
O=Cc1cccc(C=O)c1 [IPA, isophthalaldehyde, reference compound]	Non-Staining	non-staining	−	
O=Cc1ccccc1C=O [OPA, phthalaldehyde]			+	Dark Staining
O=Cc1ccc(C=O)cc1 [TPA, terephthalaldehyde, reference compound]			−	
